Values from PubChem BioAssay AID1259414 (Drosophila RNAi Screening Center, 2018)
Purpose: 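Fly genes that alter Wolbachia amount inside host cells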 (primary screen). System: Drosophila JW18 cells infected with Wolbachia. Reagents: long dsRNA against Drosophila genes, 0.25 µg dsRNA per well of a 384-well plate. Duration: 5 days. Conditions: cells persistently infected with Wolbachia before knock-down; no added drug. Measurement: 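Automated imaging of bacterial rRNA staining divided by host cell count, reported as plate-normalised robust z-score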. Direction: Wolbachia per cell robust z: higher = more Wolbachia per host cell than the plate typical. Active means: 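Active if absolute robust z reaches 1.5 in two or more of three replicates, leaving out multi- or no-target dsRNAs, genes unexpressed in JW18 and A1 wells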.
In all, the deposit lists about 24,000 reagents; this is a random part of those that have a named target and a result. In the full data, about 1,210 (5%) are marked active. 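Inactive calls also include excluded dsRNAs with several or no targets, genes unexpressed in JW18, and well A1, regardless of score.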 A number with no mark means an inactive call. The numbers tell different reagents against one gene apart. A plus sign joins genes that one reagent is predicted to hit. Reagent sequences are not shown.

Silencing of Mccc2 (GeneID 59261) came out at: Wolbachia per cell robust z, rep 1 = 0.807; Wolbachia per cell robust z, rep 2 = 0.223; Wolbachia per cell robust z, rep 3 = 0.141.
For CG8157 (GeneID 36700) #1 the deposit lists Wolbachia per cell robust z, rep 1 = -1.02; Wolbachia per cell robust z, rep 2 = -1.69; Wolbachia per cell robust z, rep 3 = -0.697.
Against CG8157 (GeneID 36700) #2, the values are Wolbachia per cell robust z, rep 1 = -1.17; Wolbachia per cell robust z, rep 2 = -1.99; Wolbachia per cell robust z, rep 3 = -1.17.
With knock-down of CG8157 (GeneID 36700) #3, the record shows Wolbachia per cell robust z, rep 1 = -0.127; Wolbachia per cell robust z, rep 2 = -0.0825; Wolbachia per cell robust z, rep 3 = 0.133.
Knock-down of drpr (GeneID 38218) #1 gave: Wolbachia per cell robust z, rep 1 = 1.26; Wolbachia per cell robust z, rep 2 = 0.921; Wolbachia per cell robust z, rep 3 = 0.558.
drpr (GeneID 38218) #2 scored Wolbachia per cell robust z, rep 1 = 0.983; Wolbachia per cell robust z, rep 2 = 0.254; Wolbachia per cell robust z, rep 3 = 0.597.
Pef (GeneID 36111) gave Wolbachia per cell robust z, rep 1 = 0.419; Wolbachia per cell robust z, rep 2 = -0.114; Wolbachia per cell robust z, rep 3 = 0.441.
With knock-down of Sec61beta (GeneID 46080) #1 the results were Wolbachia per cell robust z, rep 1 = -0.578; Wolbachia per cell robust z, rep 2 = -0.744; Wolbachia per cell robust z, rep 3 = 0.118.
With knock-down of Sec61beta (GeneID 46080) #2, the record shows Wolbachia per cell robust z, rep 1 = -1.72 (active); Wolbachia per cell robust z, rep 2 = -0.213; Wolbachia per cell robust z, rep 3 = -1.69.
Depletion of Sec61beta (GeneID 46080) #3 gave: Wolbachia per cell robust z, rep 1 = 0.0853; Wolbachia per cell robust z, rep 2 = -0.379; Wolbachia per cell robust z, rep 3 = 2.34.
Mocs2A + Mocs2B + CR42201 gave Wolbachia per cell robust z, rep 1 = -0.821; Wolbachia per cell robust z, rep 2 = -2.81; Wolbachia per cell robust z, rep 3 = 0.989.
After knock-down of Eps-15 (GeneID 37961) the results were Wolbachia per cell robust z, rep 1 = -2.68 (active); Wolbachia per cell robust z, rep 2 = -0.424; Wolbachia per cell robust z, rep 3 = -3.21.
Against stet (GeneID 38169) #1, the values are Wolbachia per cell robust z, rep 1 = -0.208; Wolbachia per cell robust z, rep 2 = 0.116; Wolbachia per cell robust z, rep 3 = 0.204.
Depletion of stet (GeneID 38169) #2 resulted in: Wolbachia per cell robust z, rep 1 = 0.0757; Wolbachia per cell robust z, rep 2 = -1.16; Wolbachia per cell robust z, rep 3 = 0.0586.
CG31223 (GeneID 326127) showed Wolbachia per cell robust z, rep 1 = 1.68; Wolbachia per cell robust z, rep 2 = 0.741; Wolbachia per cell robust z, rep 3 = -0.607.
Knock-down of MESR4 (GeneID 36986) resulted in: Wolbachia per cell robust z, rep 1 = -1.9 (active); Wolbachia per cell robust z, rep 2 = -2.62; Wolbachia per cell robust z, rep 3 = 1.37.
Depletion of UBL3 (GeneID 32541) came out at: Wolbachia per cell robust z, rep 1 = -0.185; Wolbachia per cell robust z, rep 2 = 0.373; Wolbachia per cell robust z, rep 3 = -1.92.
For Ir60b (GeneID 7354400) #1, the entry reads Wolbachia per cell robust z, rep 1 = 0.433; Wolbachia per cell robust z, rep 2 = -1.39; Wolbachia per cell robust z, rep 3 = -0.454.
Ir60b (GeneID 7354400) #2 scored Wolbachia per cell robust z, rep 1 = -1.45; Wolbachia per cell robust z, rep 2 = 0.122; Wolbachia per cell robust z, rep 3 = -1.23.
Knock-down of CG5793 (GeneID 42505) #1 gave: Wolbachia per cell robust z, rep 1 = -1.29; Wolbachia per cell robust z, rep 2 = -0.142; Wolbachia per cell robust z, rep 3 = 0.324.
Depletion of CG5793 (GeneID 42505) #2 resulted in: Wolbachia per cell robust z, rep 1 = 0.733; Wolbachia per cell robust z, rep 2 = 0.467; Wolbachia per cell robust z, rep 3 = 0.629.
CG9393 (GeneID 41152) showed Wolbachia per cell robust z, rep 1 = 0.0601; Wolbachia per cell robust z, rep 2 = -2.12; Wolbachia per cell robust z, rep 3 = -0.0541.
CG4669 (GeneID 38608) gave Wolbachia per cell robust z, rep 1 = 0.0927; Wolbachia per cell robust z, rep 2 = -0.112; Wolbachia per cell robust z, rep 3 = 0.199.
For hang (GeneID 32613) #1 the deposit lists Wolbachia per cell robust z, rep 1 = -0.563; Wolbachia per cell robust z, rep 2 = 1.04; Wolbachia per cell robust z, rep 3 = 2.15.
hang (GeneID 32613) #2 showed Wolbachia per cell robust z, rep 1 = 1.2; Wolbachia per cell robust z, rep 2 = 0.64; Wolbachia per cell robust z, rep 3 = -0.314.

Taken from above:
CG4669 (GeneID 38608), Wolbachia per cell robust z, rep 3 → 0.199
For “Wolbachia per cell robust z, rep 2”, drpr (GeneID 38218) #2 is entered as 0.254
CG5793 (GeneID 42505) #2, Wolbachia per cell robust z, rep 2 → 0.467
